From patent US10919935B2, “Antimicrobial peptide derived from myxinidin peptide and uses thereof” (INDUSTRY-ACADEMIC COOPERATION FOUNDATION, CHOSUN UNIVERSITY, priority 2015, dated 2021)
Residues, ends and D or L forms follow the SMILES beside them.

Test: Circular dichroism spectrum in membrane-mimicking solutions
Settings: peptide 50 μM in PG or PE:PG

Structure (SMILES)	Secondary structure by circular dichroism
CC[C@H](C)[C@H](NC(=O)[C@H](Cc1c[nH]c2ccccc12)NC(=O)[C@H](CCCCN)NC(=O)[C@@H](NC(=O)[C@@H](N)CCCCN)[C@@H](C)CC)C(=O)N[C@@H](CC(C)C)C(=O)N[C@@H](CCCCN)C(=O)N[C@@H](Cc1ccc(O)cc1)C(=O)N[C@@H](Cc1c[nH]c2ccccc12)C(=O)N[C@@H](CCCCN)C(=O)N[C@@H](Cc1c[nH]c2ccccc12)C(=O)N[C@@H](CO)C(N)=O [Myxinidin 2, KIKWILKYWKWS-NH2] (H-KIKWILKYWKWS-NH2; N-terminus assumed)	an α-helical structure or a β-sheet structure as a secondary structure is formed
CC[C@H](C)[C@H](NC(=O)[C@H](Cc1c[nH]c2ccccc12)NC(=O)[C@H](CCCNC(=N)N)NC(=O)[C@@H](NC(=O)[C@@H](N)CCCNC(=N)N)[C@@H](C)CC)C(=O)N[C@@H](CC(C)C)C(=O)N[C@@H](CCCNC(=N)N)C(=O)N[C@@H](Cc1ccc(O)cc1)C(=O)N[C@@H](Cc1c[nH]c2ccccc12)C(=O)N[C@@H](CCCNC(=N)N)C(=O)N[C@@H](Cc1c[nH]c2ccccc12)C(=O)N[C@@H](CO)C(N)=O [Myxinidin 3, RIRWILRYWRWS-NH2] (H-RIRWILRYWRWS-NH2; N-terminus assumed)	an α-helical structure or a β-sheet structure as a secondary structure is formed
